# Assay results published in paper PMC3445454, “Broad and Cross-Clade CD4^+ T-Cell Responses Elicited by a DNA Vaccine Encoding Highly Conserved and Promiscuous HIV-1 M-Group Consensus Peptides” (PLoS ONE, 2012).
# Read-outs that look alike come from different tables or passages of the source.
# Assays:
# Test in all cases: biochemical
# [1] = molecular target: HLA-DQ DQA1*05:01/DQB1*02:01 (Homo sapiens, UniProt P01909+P01920, A45G/A70V/D89A/E106A/E77G/E98D/H199R/L107V/N214S/P84L/P87L/T103K/T109R/T172A/T60S/V78E/V99I/Y58L/Y62S/Y69I/Y79F)
# [2] = molecular target: HLA-DQ DQA1*01:02/DQB1*05:02 (Homo sapiens, UniProt P01909+P01920, A157S/A45G/A70V/C70R/D89S/E106S/E118A/E183D/E77G/F83G/G63E/H151Q/H199R/H252R/H253Q/I129T/I235V/I88M/INS77G/K197Q/L107V/L117V/L119Y/L178F/L71W/L74F/L85Q/L91A/L98M/M46L/N214S/P87R/Q116E/Q158H/Q256R/Q76K/R102G/R240Q/R75S/R78G/S102Y/S185I/S41F/S97I/T103A/T109R/T121G/T122I/T172A/T86R/V148I/V229M/V68A/V73E/Y34C/Y58G/Y62H)
# [3] = molecular target: HLA-DQ DQA1*03:01/DQB1*03:02 (Homo sapiens, UniProt P01909+P01920, A209T/A45G/C70Q/D89A/DUP78-78/E183D/E77G/F237L/G63E/H199R/I129T/K197E/L178F/L74F/L98V/Q57E/Q76R/S185I/S97I/T217I/T49S/V73L/Y58L); format: binding; conditions: read-out: Binding capacity/IC50 (nM) DQA1*03:01 DQB1*03:02
# [4] = molecular target: HLA-DQ DQA1*01:04/DQB1*05:03 (Homo sapiens, UniProt P01909+P01920, A157S/A221T/A45G/A70V/C70R/D25G/E106S/E118A/E183D/E77G/F83G/G63E/H151Q/H199R/H252R/H253Q/I129T/I235V/I88M/INS77G/K197Q/L107V/L117V/L119Y/L178F/L71W/L74F/L85Q/L91A/L98M/M46L/N214S/P87R/Q116E/Q256R/Q57E/Q76K/R102G/R240Q/R75S/R78G/S102Y/S185I/S41F/S97I/T103A/T109R/T121G/T122I/T172A/T86R/V148I/V68A/V73E/Y34C/Y58G/Y62H)
# [5] = molecular target: HLA-DQ DQA1*04:01/DQB1*04:02 (Homo sapiens, UniProt P01909+P01920, A45G/E106S/E183D/E77G/E98D/H199R/I129T/K197E/L107V/L178F/L91T/P87R/P88L/R102E/S185I/S97I/T103D/T217I/V99I/Y41F/Y58G)
# [6] = molecular target: HLA-DQ DQA1*01:03/DQB1*06:03 (Homo sapiens, UniProt P01909+P01920, A157G/A45G/C70R/E118A/E183D/E77G/F83G/G63E/H199R/H252R/H253Q/I129T/I235V/I88M/INS77G/K197Q/L117V/L119F/L178F/L71W/L74F/L85Q/L91A/L98M/N214S/P87R/Q116E/Q76K/R102G/R240Q/R64K/R75S/R78G/S102Y/S152A/S185I/S41F/S97I/T121G/T122I/T172A/T86R/V68A/V73E/Y34C/Y48F/Y58L/Y62H)
# [7] = molecular target: HLA-DQ DQA1*01:02/DQB1*06:02 (Homo sapiens, UniProt P01909+P01920, A157G/A45G/C70R/E118A/E183D/E77G/F83G/G63E/H151Q/H199R/H252R/H253Q/I129T/I235V/I88M/INS77G/K197Q/L117V/L119F/L178F/L71W/L74F/L85Q/L91A/L98M/N214S/P87R/Q116E/Q76K/R102G/R240Q/R75S/R78G/S102Y/S185I/S41F/S97I/T121G/T122I/T172A/T86R/V229M/V68A/V73E/Y34C/Y41F/Y58L); format: binding
# [8] = molecular target: HLA-DQ DQA1*03:01/DQB1*03:01 (Homo sapiens, UniProt P01909+P01920, A209T/C70Q/DUP78-78/E183D/F237L/G63E/I129T/K197E/L178F/L74F/L98V/Q57E/Q76R/S185I/S97I/T49S/V73L); format: binding
# [9] = molecular target: HLA-DQ DQA1*02:01/DQB1*02:02 (Homo sapiens, UniProt P01909+P01920, A45G/A70V/C70K/D167G/D89A/E106A/E183D/E77G/E98D/F237L/F77L/G63E/H199R/I129T/K197E/L107V/L178F/L74F/N214S/P84L/P87L/Q57E/Q76R/R75H/S185I/S97I/T103K/T109R/T172A/T60S/V73L/V78E/V99I/Y48F/Y58L/Y62S/Y69I/Y79F); format: binding
# [10] = molecular target: HLA-DQ DQA1*01:01/DQB1*05:01 (Homo sapiens, UniProt P01909+P01920, A157S/A45G/A70V/C70R/D89V/E106S/E118A/E183D/E77G/F83G/G63E/H151Q/H199R/H252R/H253Q/I129T/I235V/I88M/INS77G/K197Q/L107V/L117V/L119Y/L178F/L71W/L74F/L85Q/L91A/L98M/M46L/N214S/P87R/Q116E/Q256R/Q57E/Q76K/R102G/R240Q/R75S/R78G/S102Y/S185I/S41F/S97I/T103A/T109R/T121G/T122I/T172A/T86R/V148I/V68A/V73E/Y34C/Y58G/Y62H)
# [11] = read-out: Binding capacity/IC50 (nM) DQA1*03:01 DQB1*03:01
# [12] = read-out: Binding capacity/IC50 (nM) DQA1*01:02 DQB1*06:02
# [13] = read-out: Binding capacity/IC50 (nM) DQA1*02:01 DQB1*02:02
Structure (SMILES),IC50 [1] [µM],IC50 [2] [µM],IC50 [3] [nM],IC50 [4] [µM],IC50 [5] [µM],IC50 [6] [µM],IC50 [7] [nM],"IC50 [8, 11] [nM]",IC50 [9] [nM],IC50 [10] [µM],"IC50 [7, 12] [nM]","IC50 [9, 13] [nM]",IC50 [8] [nM]
CSCC[C@H](NC(=O)[C@H](CCCCN)NC(=O)[C@H](C)NC(=O)[C@@H](N)Cc1ccc(O)cc1)C(=O)N[C@@H](CCCNC(=N)N)C(=O)N[C@@H](CO)C(=O)N[C@@H](C)C(=O)N[C@@H](Cc1c[nH]cn1)C(=O)N[C@H](C(=O)N[C@@H](CC(N)=O)C(=O)N[C@@H](CC(=O)O)C(=O)N[C@H](C(=O)N[C@@H](CCCCN)C(=O)N[C@@H](CCC(N)=O)C(=O)N[C@@H](CC(C)C)C(N)=O)C(C)C)[C@@H](C)O [RT(354-368)],> 30,5.91,> 30000,3.92,> 30,0.337,440,33,25900,3.66,,,
CC[C@H](C)[C@H](N)C(=O)N[C@H](C(=O)N[C@@H](C)C(=O)N[C@@H](CC(C)C)C(=O)N[C@H](C(=O)N[C@H](C(=O)N[C@@H](C)C(=O)N[C@H](C(=O)N[C@H](C(=O)N[C@H](C(=O)N[C@@H](Cc1c[nH]c2ccccc12)C(=O)N[C@H](C(=O)N[C@H](C(=O)N[C@H](C(N)=O)C(C)C)[C@@H](C)CC)[C@@H](C)O)C(C)C)C(C)C)[C@@H](C)CC)[C@@H](C)CC)[C@@H](C)CC)C(C)C [vpu(13-26)],> 30,> 30,> 30000,> 30,> 30,5.81,,> 30000,,> 30,> 30000,> 30000,
CC(C)C[C@H](NC(=O)[C@H](CCCCN)NC(=O)[C@@H](NC(=O)[C@H](CC(C)C)NC(=O)[C@@H]1CCCN1C(=O)[C@@H]1CCCN1C(=O)[C@@H](NC(=O)[C@H](CC(N)=O)NC(=O)[C@@H](NC(=O)[C@H](Cc1ccccc1)NC(=O)[C@H](CCC(=O)O)NC(=O)[C@H](Cc1c[nH]c2ccccc12)NC(=O)[C@@H](N)CCC(=O)O)C(C)C)[C@@H](C)O)C(C)C)C(=O)N[C@@H](Cc1c[nH]c2ccccc12)C(=O)N[C@@H](Cc1ccc(O)cc1)C(N)=O [RT(413-427)],0.791,9.46,> 30000,23,11.1,1.66,> 30000,,21500,6.77,,,3160
CC(C)C[C@H](NC(=O)CNC(=O)[C@H](Cc1c[nH]cn1)NC(=O)[C@H](CC(C)C)NC(=O)[C@H](Cc1c[nH]c2ccccc12)NC(=O)[C@@H]1CCCN1C(=O)[C@H](CCCNC(=N)N)NC(=O)[C@@H]1CCCN1C(=O)[C@H](Cc1ccccc1)NC(=O)[C@H](Cc1c[nH]cn1)NC(=O)[C@H](CCCNC(=N)N)NC(=O)[C@@H](NC(=O)[C@H](C)NC(=O)[C@@H](N)CCC(=O)O)C(C)C)C(N)=O [vpr(29-42)],26.5,> 30,> 30000,> 30,> 30,1.84,,4550,,24.8,> 30000,> 30000,
CC[C@H](C)[C@H](NC(=O)[C@@H](NC(=O)[C@H](CCCCN)NC(=O)[C@H](C)NC(=O)[C@H](CCCCN)NC(=O)[C@H](CCCNC(=N)N)NC(=O)[C@H](CCCNC(=N)N)NC(=O)[C@@H]1CCCN1C(=O)[C@@H](NC(=O)[C@@H](NC(=O)[C@H](CCCCN)NC(=O)[C@@H](NC(=O)[C@H](CC(=O)O)NC(=O)[C@H](CO)NC(=O)[C@H](CC(N)=O)NC(=O)[C@H](CC(=O)O)NC(=O)[C@H](CCC(N)=O)NC(=O)[C@@H](NC(=O)[C@@H](NC(=O)[C@@H](N)C(C)C)C(C)C)[C@@H](C)CC)[C@@H](C)CC)C(C)C)C(C)C)[C@@H](C)CC)C(N)=O [integrase(249-268)],> 30,4.11,> 30000,24,> 30,0.884,,,,4.04,11300,> 30000,4190
CC[C@H](C)[C@H](NC(=O)[C@H](Cc1ccc(O)cc1)NC(=O)CNC(=O)[C@H](CO)NC(=O)[C@H](C)NC(=O)[C@@H](NC(=O)[C@H](Cc1c[nH]cn1)NC(=O)[C@@H](NC(=O)[C@H](C)NC(=O)[C@@H](NC(=O)[C@H](CC(C)C)NC(=O)[C@@H](NC(=O)[C@@H](NC(=O)[C@H](CCCCN)NC(=O)CNC(=O)[C@@H](N)CCC(=O)O)[C@@H](C)CC)[C@@H](C)CC)C(C)C)C(C)C)C(C)C)C(=O)N[C@@H](CCC(=O)O)C(N)=O [integrase(69-85)],5.7,0.63,> 30000,0.734,5.62,21.5,,426,,0.409,14,5590,
CC[C@H](C)[C@H](NC(=O)[C@H](CCSC)NC(=O)[C@@H](NC(=O)[C@H](CCC(N)=O)NC(=O)[C@H](Cc1c[nH]c2ccccc12)NC(=O)[C@H](CCCNC(=N)N)NC(=O)[C@H](CC(N)=O)NC(=O)[C@H](CCC(=O)O)NC(=O)[C@@H](N)CCSC)C(C)C)C(=O)N[C@H](C(=O)N[C@@H](Cc1c[nH]c2ccccc12)C(=O)N[C@@H](CCC(N)=O)C(=O)N[C@H](C(=O)N[C@@H](CC(=O)O)C(=O)N[C@@H](CCCNC(=N)N)C(N)=O)C(C)C)C(C)C [vif(1-15)],> 30,0.699,17600,0.731,5.53,8.03,,10400,3210,,1340,,
